Results of unrelated studies side by side (data: NIAID ChemDB).

Common to all: tests in culture; agent: Hepatitis C virus; cell line: Huh7; measure: EC50

Blank or dashed fields: not listed here. ECn is the concentration giving n% inhibition of infection, replication or growth. a–b is a range or a potency band. Conditions beyond the fields shown may differ between rows.

smiles,strain or isolate,method,conditions,value
N/C(Cc1cccc2ccccc12)=N\OC(=O)N1CCOCC1,-,replicon,-,0.36 µM
O=C(Nc1ccc(C2SC(=Nc3ccc4c(c3)CCC4)N(Cc3ccco3)C2=O)cc1)[C@H]1CCCN1C(=O)OCc1ccccc1,-,replicon,-,0.1–1 µM
CNC(=O)c1c(-c2ccc(F)cc2)oc2ccc(F)cc12,-,replicon,-,<30 µM
Cc1ccc2nc(Nc3cc(Cl)cc(Br)c3)sc2c1,Con1,PCR,-,>200 µM
CC(=O)Nc1ccc(-c2ccc3nc(N)nc(N4CCN(C)CC4)c3c2)cc1,-,-,-,1–10 µM
CNC(=O)c1c(-c2ccc(F)cc2)oc2cc(N(C)S(C)(=O)=O)c(Oc3nc(CCl)ns3)cc12,-,replicon,-,<1 µM
O=C(c1cc2c(C(F)(F)F)cc(-c3ccccc3)nc2s1)N1CCOCC1,-,MTT,-,4.5 µM
O=C(CC12CC3CC(CC(C3)C1)C2)N/N=C/c1ccccc1OS(=O)(=O)c1ccc(C(F)(F)F)cc1,-,replicon,-,>50 µM
CC(C)CC[C@@]1(C)C(=O)C(C2=NS(=O)(=O)c3cc(NS(C)(=O)=O)ccc3N2)=C(O)c2ccccc21,4a,luciferase,-,0.3882 µM
CNC(=O)c1c(-c2ccc(F)cc2)oc2ccc(OCc3cccc(C(=O)OC)c3)cc12,-,replicon,-,>30 µM
CN(C)c1ncnc2ccc(-c3ccc(F)cc3)cc12,-,-,-,1–10 µM
Oc1ccc(Cl)cc1-c1cc(-c2ccccn2)on1,-,replicon,-,>32 µM
CNC(=O)c1c(-c2ccc(F)cc2)oc2cc(N(CC(=O)O)S(C)(=O)=O)c(OC(C)C)cc12,-,replicon,-,<1 µM
COc1ccc(C(=O)O/N=C(\N)Cc2ccc([N+](=O)[O-])cc2)c(OC)c1,-,replicon,-,1.82 µM
COC(=O)N[C@H](C(=O)N1CCC[C@H]1c1ncc(-c2ccc3c(c2)Cc2ccc(-c4cnc([C@@H]5CCCN5C(=O)[C@@H](NC(=O)OC)C(C)C)[nH]4)cc2O3)[nH]1)C(C)C,GT3a,luciferase / replicon,-,0.0013 µM
Oc1ccccc1-c1ccn(-c2ccccc2C(F)(F)F)n1,-,replicon,-,20 µM
CNC(=O)c1c(-c2ccc(F)cc2)oc2cc(N(C)S(C)(=O)=O)c(OC(F)F)cc12,-,replicon,-,<1 µM
O=C(Cc1ccccc1SC(F)(F)F)N/N=C/c1ccccc1OS(=O)(=O)c1ccc(C(F)(F)F)cc1,-,replicon,-,<5 µM
Cc1cc(O)c(-c2c(C)cnn2-c2ccccc2C)cc1C,-,replicon,-,>19 µM
COc1ccc(-c2cc(C(F)(F)F)c3c(N)c(C(N)=O)sc3n2)cc1,-,MTT,-,4 µM
Fc1ccc(-c2ccc3ncnc(NC4CC4)c3c2)cc1,-,-,-,1–10 µM
O=c1nc(NO)c(F)cn1[C@H]1O[C@@H](CO)C[C@@H]1O,-,-,-,31.2 µM
CCC[C@H](NC(=O)[C@@H]1[C@H]2CCC[C@H]2CN1C(=O)[C@@H](NC(=O)[C@@H](NC(=O)c1cnccn1)C1CCCCC1)C(C)(C)C)C(=O)C(=O)NC1CC1,-,replicon,10% human serum,0.88 µM
Nc1nc(=O)n([C@@H]2O[C@H](CO)C[C@H]2O)cc1F,-,-,-,45.4 µM
CCc1cc2c(C(=O)NC)c(-c3ccc(F)cc3)oc2cc1N(CCOC)S(C)(=O)=O,-,replicon,-,<1 µM
Nc1ncnc2c1ncn2[C@@H]1C[C@H](CO)[C@@H](O)C12CC2,-,luciferase,-,44.1 µM
O=C(N[C@@H](Cc1c[nH]c2ccc(O)cc12)C(=O)O)c1ccc2nc(-c3ccc(F)cc3)c(-c3ccc(F)cc3)nc2c1,-,replicon,-,10–50 µM
C=C(Br)CCOC(=O)C1=C(C)NC(=S)NC1,-,ELISA,-,<1 µM
Nc1ccn([C@@H]2C[C@H](CO)[C@@H](CO)C23CC3)c(=O)n1,-,luciferase,-,>50 µM
O=C(N[C@@H](Cc1c[nH]c2ccccc12)C(=O)O)c1ccc2nc(-c3ccccn3)c(-c3ccccn3)nc2c1,-,replicon,-,>50 µM
O=C(Cc1cc(F)cc(F)c1F)N/N=C/c1ccccc1OS(=O)(=O)c1ccc(C(F)(F)F)cc1,-,replicon,-,<5 µM
O=C(O)c1ccc2c(C3CCCCC3)c3n(c2c1)CCNc1ccccc1-3,-,replicon,10% FBS,0.57 µM
COc1ccc2c(O[C@@H]3C[C@H]4C(=O)N[C@]5(C(=O)O)C[C@H]5/C=C\CCCCC[C@H](NC(=O)OC5CCCC5)C(=O)N4C3)cc(-c3csc(NC(C)C)n3)nc2c1,-,replicon,-,0.004 µM
COC(=O)c1ccc2nc(-c3ccc(F)cc3)c(-c3ccc(F)cc3)nc2c1,-,replicon,-,>50 µM
CNC(=O)c1c(-c2ccc(F)cc2)oc2cc(C3(C)CNC(=O)O3)c(OC(C)C)cc12,-,replicon,-,<1 µM
OCc1nnc(-c2ccc(N3CC(Oc4ccccc4C(F)(F)F)C3)nn2)o1,GT1b,PCR,-,0.0009 µM
Nc1ncnc2ccc(-c3ccc(F)cc3)cc12,-,-,-,1–10 µM
COc1ccccc1-c1nnc(-c2ccccc2O)o1,-,replicon,-,>32 µM
N/C(=N\OC(=O)N1CCOCC1)c1ccc([N+](=O)[O-])cc1,-,replicon,-,2.61 µM
Nc1c(C(=O)N2CCOCC2)sc2nc3c(c(C(F)(F)F)c12)CCc1ccccc1-3,-,MTT,-,3.9 µM
COC(=O)[C@H](Cc1c[nH]c2ccc(O)cc12)NC(=O)c1ccc2nc(-c3ccc(Cl)cc3)c(-c3ccc(C)cc3)nc2c1,-,replicon,-,<10 µM
CC1=C(C(=O)OC(C)c2ccccc2)CNC(=S)N1,-,ELISA,-,1–10 µM
OCc1nc(-c2cnc(N3CCC(Oc4ccccc4C(F)(F)F)CC3)s2)no1,SGR (gt 1b),PCR,-,0.062 µM
C[C@@H](NC(=O)OCc1ccccc1)C(=O)Nc1ccc(C2SC(=Nc3ccc(N4CCOCC4)cc3)N(Cc3ccncc3)C2=O)cc1,-,replicon,-,<0.1 µM
Nc1nc(N2CCOCC2)c2cc(-c3ccc(Cl)cc3)ccc2n1,-,-,-,0.3–1 µM
Cc1ccc(O)c(-c2n[nH]c(-c3nccc4ccccc34)n2)c1O,-,replicon,-,>19 µM
CC1CCC(C(=O)N(c2cc(-c3ccccc3)sc2C(=O)O)C(C)C)C(O)C1,-,replicon,-,0.2 µM
COc1ccc([C@@H]2Oc3ccc([C@H]4Oc5cc(O)cc(O)c5C(=O)[C@@H]4O)cc3O[C@H]2CO)cc1O,1b,replicon,-,1.3 µM
Cc1ccc2nc(Nc3cc(O)cc([N+](=O)[O-])c3)sc2c1,Con1,PCR,-,10 µM
C[C@@H](NC(=O)OCc1ccccc1)C(=O)Nc1ccc(C2SC(=Nc3cccc(F)c3)N(Cc3ccc(OC(F)(F)F)cc3)C2=O)cc1,-,replicon,-,1–5 µM
Cc1cc(C)cc(Nc2nc3ccc(C)cc3s2)c1,Con1,PCR,-,5 µM
COc1ccc(C/C(N)=N/OC(=O)C(c2ccccc2)c2ccccc2)cc1OC,-,replicon,-,2.29 µM
COc1cc(C2C3CO[C@]4(O)C[C@H]2C=C([C@H]2Oc5cc(O)cc(O)c5C(=O)[C@@H]2O)[C@H]34)ccc1O,1b,replicon,-,>100 µM
N/C(=N\OC(=O)N1CCOCC1)c1c(Cl)cccc1Cl,-,replicon,-,1.63 µM
COC(=O)OC(c1oc(=O)oc1C)C1NC(=S)NC(C)=C1C(=O)OCCc1cccc(Cl)c1,-,ELISA,-,<1 µM
CNC(=O)c1c(-c2ccc(F)cc2)oc2cc(N(C)S(C)(=O)=O)c(OC(C)c3nccs3)cc12,-,replicon,-,<1 µM
COc1ccc(S(=O)(=O)Oc2ccccc2/C=N/NC(=O)Cc2ccccc2)cc1,-,replicon,-,<5 µM
CNC(=O)c1c(-c2ccc(F)cc2)oc2cc(N(Cc3c(C)noc3C)S(C)(=O)=O)c(OC)cc12,-,replicon,-,<10 µM
COc1cccc(CC(=O)N/N=C/c2cccnc2OS(=O)(=O)c2ccc(C)cc2)c1,-,replicon,-,5–50 µM
CCOC(=O)c1cc(-c2ccc3ccccc3c2)nn1-c1ncccc1[N+](=O)[O-],-,replicon,-,>32 µM

Repeating the final 5 entries:

smiles	strain or isolate	method	conditions	value
CNC(=O)c1c(-c2ccc(F)cc2)oc2cc(N(C)S(C)(=O)=O)c(OC(C)c3nccs3)cc12	-	replicon	-	<1 µM
COc1ccc(S(=O)(=O)Oc2ccccc2/C=N/NC(=O)Cc2ccccc2)cc1	-	replicon	-	<5 µM
CNC(=O)c1c(-c2ccc(F)cc2)oc2cc(N(Cc3c(C)noc3C)S(C)(=O)=O)c(OC)cc12	-	replicon	-	<10 µM
COc1cccc(CC(=O)N/N=C/c2cccnc2OS(=O)(=O)c2ccc(C)cc2)c1	-	replicon	-	5–50 µM
CCOC(=O)c1cc(-c2ccc3ccccc3c2)nn1-c1ncccc1[N+](=O)[O-]	-	replicon	-	>32 µM